Values of other authors as cited in patent US7902170B2, “Influenza virus binding, sialylated oligosaccharide substance and use thereof” (priority 2000, dated 2011).

System: influenza virus A/PR/8/34 (H1N1)
Conditions: cited authors (Suzuki, 1994; Müthing, 1996); cited from earlier work

Row | Substance | Interaction of PR/8/34 with the structure
1 | NeuAcα3Galβ4GlcNAcβ3Galβ4(Fucα3)GlcNAcβ- [VIM-2] | strong interaction
2 | NeuAcα3Galβ4(Fucα3)GlcNAcβ- | strong interaction
